From PMC7235819, “Advanced Resistance Studies Identify Two Discrete Mechanisms in Staphylococcus aureus to Overcome Antibacterial Compounds that Target Biotin Protein Ligase” (Antibiotics, 2020)
For at least one entry, the source does not settle the construct or the ends of the probe. A weaker result is weaker than the reference pair of the same experiment.

Assays:
[1] = target: SaBPL-D200E (Staphylococcus aureus Mu50) (UniProt A0A0H3JRH8); assay: EMSA; settings: EMSA adapted from cited protocols, pH and temperature not given, BASA or biotin at 100 uM with 2.5% DMSO in the Fig S7 assays, recombinant protein
[2] = target: SaBPL (biotin protein ligase, BirA) wild type (Staphylococcus aureus Mu50) (UniProt A0A0H3JRH8); assay: EMSA; settings: apo, unbound probe remains at 625 nM; EMSA adapted from cited protocols; pH and temperature not given; BASA or biotin at 100 uM with 2.5% DMSO in the Fig S7 assays; recombinant protein
[3] = apo, unbound probe remains at 625 nM

Measured: binding result

AACTTATTGTAAACTTTTCATTTCTTAAAGTTTACAATGGTGCT (double strand) [bioY]
binds more weakly: [1]; [3] | [1]; holo: biotin + MgATP (biotinyl-5'-AMP), incomplete binding at 156 nM, highest tested | [2]

CCTTAAATGTAAACTTTTATAATTAATAAGTTTACATTTAAG / CCTTAAATGTAAACTTATTAATTATAAAAGTTTACATTTAAGG [bioO]
binds more weakly: [1]; [3] | [1]; holo: biotin + MgATP (biotinyl-5'-AMP), 156 nM needed to bind all probe (about 3-fold more than wild type) | [2]
